Reference: PubChem BioAssay AID1259414 (Drosophila RNAi Screening Center, 2018)
The deposit covers about 24,000 reagents; below is an unselected part of those that have a named target and a result. Over the whole deposit, about 1,210 (5%) got an active call. 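Inactive calls also include excluded dsRNAs with several or no targets, genes unexpressed in JW18, and well A1, regardless of score.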 The numbers tell different reagents against one gene apart. Names joined by + are all predicted targets of the reagent.

- Test: 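Genome-wide screen for host control of endosymbiont load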 (primary screen)
- System: Drosophila JW18 cells infected with Wolbachia
- Reagents: long dsRNA against Drosophila genes, 0.25 µg dsRNA per well of a 384-well plate
- Timing: 5 days
- Conditions: cells persistently infected with Wolbachia before knock-down; no added drug
- Measurement: 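Imaged fluorescence in situ signal for Wolbachia 23S rRNA per DAPI-counted host cell, given as a robust z-score within each plate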
- Scale: Wolbachia per cell robust z: higher = more Wolbachia per host cell than the plate typical
- Active means: 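Active if absolute robust z reaches 1.5 in two or more of three replicates, leaving out multi- or no-target dsRNAs, genes unexpressed in JW18 and A1 wells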

predicted target	reagent no.	Wolbachia per cell robust z, rep 1	Wolbachia per cell robust z, rep 2	Wolbachia per cell robust z, rep 3	activity call
Psn (Presenilin)	1	-0.296	0.38	-0.101	inactive
Pde1c (Phosphodiesterase 1c)	1	0.117	0.549	-0.64	inactive
Pde1c (Phosphodiesterase 1c)	2	-2.38	1.34	0.489	inactive
Pde1c (Phosphodiesterase 1c)	3	-0.48	1.72	1.34	inactive
Pde1c (Phosphodiesterase 1c)	4	-1.1	-0.62	-3.01	inactive
Pde1c (Phosphodiesterase 1c)	5	-2.42	-1.86	-1.19	inactive
Pde1c (Phosphodiesterase 1c)	6	-0.502	-1.24	-0.757	inactive
Pde1c (Phosphodiesterase 1c)	7	-0.0683	0.679	-0.0411	inactive
CG32486	1	-0.397	1.04	1.28	inactive
CG32486	2	-0.53	-0.91	0.307	inactive
Abcd3 (ATP binding cassette subfamily D member 3)	1	-1.33	-1.17	-2.16	inactive
Abcd3 (ATP binding cassette subfamily D member 3)	2	0.717	-5.3	1.32	inactive
sel (seele)	1	-0.132	-1.33	0.67	inactive
CG14113	1	0.456	1.1	0.504	inactive
CG31954	1	-0.733	0.109	-0.777	inactive
CG31954	2	-0.245	0.0254	-0.476	inactive
CG10799	1	-1.55	-0.683	0.431	inactive
Rgk2 (Rad, Gem/Kir family member 2)	1	0.666	0.854	-0.674	inactive
Rgk2 (Rad, Gem/Kir family member 2)	2	1.12	0.695	-1.1	inactive
Rgk2 (Rad, Gem/Kir family member 2)	3	-0.54	0.502	-0.503	inactive
Rgk2 (Rad, Gem/Kir family member 2)	4	-0.826	-0.15	-0.505	inactive
Ucp4C (Uncoupling protein 4C)	1	-7.74	0.126	-7.82	inactive
Ucp4C (Uncoupling protein 4C)	2	0.218	-0.775	0.18	inactive
Acsx1R (Acyl-CoA synthetase X1 R)	1	-0.0749	0.101	1.6	inactive
alt (aluminum tubes)	1	0.347	-3.42	-5.93	active
alt (aluminum tubes)	2	-0.334	0.0563	0.149	inactive
CG43672 + CG43673	1	0.0866	0.476	-2.23	inactive
bou (boudin)	1	0.632	-4.98	0.423	inactive
Der-2 (Derlin-2)	1	0.351	0.786	-0.892	inactive
SelG (Selenoprotein G)	1	-0.282	0.25	0.779	inactive
SelG (Selenoprotein G)	2	1.38	-0.284	-0.0579	inactive
CG11929	1	-2.68	0.381	0.286	inactive
NP15.6	1	-0.396	0.525	-5.32	inactive
NP15.6	2	0.812	1.2	-1.05	inactive
CG4820	1	0.185	1.32	0.946	inactive
ppk8 (pickpocket 8)	1	-0.632	-4.47	-0.081	inactive
CG11997	1	0.783	0.563	0.734	inactive
CG11997	2	-1.22	1.07	-1.15	inactive
CG13694	1	0.885	-0.73	1.68	inactive
CG17707	1	0.104	0.286	0.604	inactive
fne (found in neurons)	1	1.15	0.499	1.37	inactive
fne (found in neurons)	2	-0.569	-1.11	0.0662	inactive
fne (found in neurons)	3	0.655	-1.09	0.194	inactive
fne (found in neurons)	4	0.356	1.23	-0.862	inactive
Klp68D (Kinesin-like protein at 68D)	1	0.45	0.407	-0.268	inactive
Klp68D (Kinesin-like protein at 68D)	2	0.689	0.819	0.87	inactive

Limited to “Wolbachia per cell robust z, rep 3” (6 entries from above):
Abcd3 (ATP binding cassette subfamily D member 3) #1 = -2.16
Abcd3 (ATP binding cassette subfamily D member 3) #2 = 1.32
sel (seele) = 0.67
CG14113 = 0.504
CG31954 #1 = -0.777
CG31954 #2 = -0.476
